Measured values taken from patent publication US12076390 (Dana-Farber, dated 2024).
Read-outs that look alike come from different tables or passages of the source.

Tests used:
[1] = biological target: T1, Recombinant full length HA of H3 A/Perth/16/09 (H3-PE09) (influenza A virus A/Perth/16/09 (H3N2)); experiment: BLI (Octet RED96), IgG1, recombinant HA
[2] = biological target: T1, Recombinant full length HA of H3 …

B1: 3I14 VLD94N IgG1 (antibody, V domains shown)
VH: QVQLLESGGGVVQPGRSLRLSCAASGFTFSNYGMHWVRQAPGKGLEWVAIISFDGSKKYYANSVKGRSTISRDNSKNTLSLQMNSLGPEDTALYYCAKLPSPYYFDSRFVWVAASAFHFWGQGILVTVSS
VL: NFMLTQPPSASGTPGQRVTISCSGSSSNIGGNTVHWFQQLPGTAPKLLIYTNSLRPSGVPDRFSGSKSGTSASLAISGLQSEDEADYYCAAWDNSLNGQVFGGGTKLTVL
With B1 the koff [1] was 5.44e-05 s⁻¹, the kon [1] was 177000 M⁻¹ s⁻¹ and the koff [2] was 0.000173 s⁻¹. It also gave a kon [2] of 74100 M⁻¹ s⁻¹.
